Anti-infective test results gathered from many reports (values: NIAID ChemDB through PubChem).

ECn: concentration that inhibits the pathogen or its effect by n%. ICn is the concentration giving n% inhibition. A number after MIC or MFC names an inhibition level or a share of isolates. Fold resistance has wild type as its base. Inhibition is in % at the dose shown (toxicity tests: loss of growth or viability). Neighbouring rows are from separate reports. An empty or dashed field is not shown.

smiles	test	species	strain or isolate	changes	cell line	protein	method	measure	dose	result
CC(C)c1cc(C(C)C)c(C(=O)Nc2nnc(NC3CCN(Cc4ccccc4)CC3)s2)c(C(C)C)c1	target	Human cytomegalovirus	-	-	-	Polymerase	-	IC50	-	>25 µM
COc1cc2c(c(OC)c1OC)-c1ccc(OC)c(=O)cc1[C@@H](NC(C)=O)CC2	culture	Encephalitozoon intestinalis	-	-	RK-13	-	-	inhibition	1 µg/mL	84.7%
Cc1cn([C@@H]2O[C@H](CO[Si](C)(C)C(C)(C)C)[C@@]3(OS(=O)(=O)C=C3N)[C@H]2O[Si](C)(C)C(C)(C)C)c(=O)[nH]c1=O	target	HIV	-	RT-N137D	-	Reverse transcriptase	nucleotide incorporation / radiometric	fold resistance	-	0.68
O=C(Nc1nnc(NCc2cccc3ccccc23)s1)c1ccc([N+](=O)[O-])o1	target	Human cytomegalovirus	-	-	-	Polymerase	-	IC50	-	<25 µM
CC(C)=CCOc1cc(NC(=S)c2ccoc2C)ccc1Cl	target	HIV	-	RT-P140A	-	Reverse transcriptase	nucleotide incorporation / radiometric	fold resistance	-	0.41
O=C(/C=C/c1ccccc1Cl)Nc1nnc(NC2CCC2)s1	target	Human cytomegalovirus	-	-	-	Polymerase	-	IC50	-	>25 µM
Cc1cn([C@@H]2O[C@H](CO[Si](C)(C)C(C)(C)C)C3(OS(=O)(=O)C=C3N)[C@H]2O[Si](C)(C)C(C)(C)C)c(=O)n(C)c1=O	target	HIV	-	RT-N137Q	-	Reverse transcriptase	nucleotide incorporation / radiometric	IC50	-	0.8 µM
CC(C)=CCN1c2cc(Cl)cc3[nH]c(=S)n(c23)C[C@@H]1C	culture	HIV-1	-	RT-D67N K70R T215Y K219Q L100I	MT-4	-	-	EC95	-	0.2 µM
CCO/N=C/c1ccc(OCCC2CCN(c3ccc(C)nn3)CC2)cc1	culture	Rhinovirus	58750 (ICAM-1 receptor group 43)	-	KB	-	neutral red	EC50	-	0.041 µM
CCOC(=O)Nc1cc2[nH]c(=O)c(-c3ccccc3)nc2c(N)n1	culture	Encephalitozoon intestinalis	-	-	RK-13	-	-	inhibition	0.01 µg/mL	32.4%
CCCCCCCC/C=C/CCCCCCCC(=O)Nc1nnc(NCCC2CCCN2C)s1	target	Human cytomegalovirus	-	-	-	Polymerase	-	IC50	-	<25 µM
C#CC[C@@H](C(=O)N[C@H](/C=C/C(=O)OCC)C[C@@H]1CCNC1=O)n1cccc(NC(=O)c2cc(C)on2)c1=O	culture	Rhinovirus	Serotype 29	-	H1-HELA	-	cytopathic effect / XTT	inhibition	0.175 µM	90%
CCOC(=O)Nc1cc2c(c(N)n1)N=C(c1ccc(OC)c(OC)c1)CO2	culture	Encephalitozoon intestinalis	-	-	RK-13	-	-	inhibition	1 µg/mL	55%
O=C(/C=C/c1ccccc1)Nc1nnc(NCCCn2ccnc2)s1	target	Human cytomegalovirus	-	-	-	Polymerase	-	IC50	-	<25 µM
CC(=O)N[C@H]1[C@@H](O[C@@H]2O[C@H](C[C@@H](O)[C@H]3O[C@@H](n4ccc(=O)[nH]c4=O)[C@H](O)[C@@H]3O)[C@H](O)[C@H](O)[C@H]2NC(=O)/C=C/CC(C)C)O[C@H](CO)[C@@H](O)[C@@H]1O	culture	Encephalitozoon intestinalis	-	-	RK-13	-	-	inhibition	0.1 µg/mL	56.9%
O=C(Nc1nnc(NCc2ccccn2)s1)c1c(Cl)cccc1Cl	target	Human cytomegalovirus	-	-	-	Polymerase	-	IC50	-	>25 µM
C[C@H](Cc1ccc(O)c(O)c1)[C@@H](C)Cc1ccc(O)c(O)c1	culture	Candida albicans	CCC 128-2000	-	-	-	broth dilution	MIC80	-	250 µg/mL
CCOC(=O)Nc1cc2[nH]c(-c3ccc4c(c3)OCO4)nc2c(NC(c2ccccc2)c2ccccc2)n1	culture	Encephalitozoon intestinalis	-	-	RK-13	-	-	inhibition	0.1 µg/mL	53.9%

Again, the opening 2 rows:

smiles | test | species | strain or isolate | changes | cell line | protein | method | measure | dose | result
CC(C)c1cc(C(C)C)c(C(=O)Nc2nnc(NC3CCN(Cc4ccccc4)CC3)s2)c(C(C)C)c1 | target | Human cytomegalovirus | - | - | - | Polymerase | - | IC50 | - | >25 µM
COc1cc2c(c(OC)c1OC)-c1ccc(OC)c(=O)cc1[C@@H](NC(C)=O)CC2 | culture | Encephalitozoon intestinalis | - | - | RK-13 | - | - | inhibition | 1 µg/mL | 84.7%